From patent publication US11312773B2, “Anti-PD-L1 antibody” (Fuso Pharmaceutical Industries, Ltd., priority 2016, dated 2022) come the findings set out here.

This test relates to BLV (bovine leukemia virus). The following applies: BLV-infected calf, 1 mg/kg i.v., until end of test period.

B1: ch4G12: rat-bovine chimeric anti-bovine PD-L1 antibody, 4G12 variable regions, mutated bovine IgG1 and Igλ constant regions; SEQ ID NOS: 105 and 106 (protein)
light: MESQTHVLISLLLSVSGTYGDIAITQSPSSVAVSVGETVTLSCKSSQSLLYSENQKDYLGWYQQKPGQTPKPLIYWATNRHTGVPDRFTGSGSGTDFTLIISSVQAEDLADYYCGQYLVYPFTFGPGTKLELKQPKSPPSVTLFPPSTEELNGNKATLVCLISDFYPGSVTVVWKADGSTITRNVETTRASKQSNSKYAASSYLSLTSSDWKSKGSYSCEVTHEGSTVTKTVKPSECS
heavy: MGWSQIILFLVAAATCVHSQVQLQQSGAELVKPGSSVKISCKASGYTFTSNFMHWVKQQPGNGLEWIGWIYPEYGNTKYNQKFDGKATLTADKSSSTAYMQLSSLTSEDSAVYFCASEEAVISLVYWGQGTLVTVSSASTTAPKVYPLSSCCGDKSSSTVTLGCLVSSYMPEPVTVTWNSGALKSGVHTFPAVLQSSGLYSLSSMVTVPGSTSGQTFTCNVAHPASSTKVDKAVDPTCKPSPCDCCPPPPVAGPSVFIFPPKPKDTLTISGTPEVTCVVVDVGHDDPEVKFSWFVDDVEVNTATTKPREEQFNSTYRVVSALRIQHQDWTGGKEFKCKVHNEGLPSSIVRTISRTKGPAREPQVYVLAPPQEELSKSTVSLTCMVTSFYPDYIAVEWQRNGQPESEDKYGTTPPQLDADSSYFLYSKLRVDRNSWQEGDTYTCVVMHEALHNHYTQKSTSKSAGK
modifications: chimeric L chain; chimeric H chain
B1: the “BLV provirus load vs before administration” value is “significantly decreased”.
